Target: protein-L (bacterial surface protein) (UniProt Q51918)
Assay: SPR

**Q.** With “barley-derived recombinant anti-HIV-1 monoclonal antibody 2G12 with KDEL tag” as the substance, how does the other read?
**A.** 101%
